A mixed list of measured activities; the numbers were collected in NIAID ChemDB.

All rows: growth or infection tests; species: HIV-1; cells: H9; read-out: EC50

ECn: concentration that inhibits the pathogen or its effect by n%. Blank or dashed fields: not listed here. Conditions beyond the fields shown may differ between rows. Two numbers with a dash give a range or band.

structure,strain or isolate,mutations,method,result
CC(C)=CCC/C(C)=C/C[N@@+]12CCc3cc(O)c(O)cc3[C@H]1Cc1cc(O)c(O)cc1C2,IIIB,,p24 / ELISA,>25 µg/mL
COc1cc([C@@H]2c3cc(O)c(O)cc3[C@H](O)[C@H]3COC(=O)[C@H]23)cc(OC)c1OC,IIIB,,p24,4.3 µg/mL
Oc1cc2c(cc1O)C1Cc3ccc(O)c(O)c3CN1CC2,IIIB,,p24 / ELISA,>2.5 µg/mL
C[C@]12CC[C@H]3[C@@H](CC=C4NC(=O)CC[C@@]43C)[C@@H]1CC[C@@H]2C(=O)Nc1ccc([N+](=O)[O-])c(C(F)(F)F)c1,IIIB,,p24,3.09 µM
C[C@@H]1O[C@@H](OC[C@H]2O[C@@H](Oc3c(-c4ccc(O)c(O)c4)oc4cc(O)cc(O)c4c3=O)[C@H](O)[C@@H](O)[C@@H]2O)[C@H](O)[C@H](O)[C@H]1O,IIIB,,p24,35.8 µg/mL
COc1ccc2c(c1)N(C(=O)OC(C)C)[C@@H](CSC)C(=S)N2,MN,,antigen,0.006 µM
O=C(O[C@@H]1OC2CC(=O)c3cc(O)c(O)c(O)c3-c3c(cc(O)c(O)c3O)C(=O)OC2C2OC(=O)c3cc(O)c(O)c(O)c3-c3c(cc(O)c(O)c3O)C(=O)OC21)c1cc(O)c(O)c(O)c1,IIIB,,p24,21 µM
CC1c2cc(O)c(O)cc2CC[N+]1(C)C,IIIB,,p24 / ELISA,>25 µg/mL
COc1cc2c(cc1OC)[C@@H](Nc1ccc(F)cc1)[C@H]1COC(=O)[C@@H]1[C@@H]2c1cc(OC)c(O)c(OC)c1,IIIB,,p24,<0.001 µg/mL
O=c1[nH]cnc2c1ncn2[C@H]1CC[C@@H](CO)O1,IIIB,,syncytia,0.21 µM
Nc1ccn([C@H]2CC[C@@H](CO)O2)c(=O)n1,IIIB,,p24,0.045 µg/mL
CN1N=C(N)c2cn([C@@H]3O[C@H](COP(=O)(O)O)[C@@H](O)[C@H]3O)c3ncnc1c23,,,p24,0.03 µM
CC1(C)Oc2ccc3ccc(=O)oc3c2[C@@H](OC(=O)C23CCC(C)(C(=O)O2)C3(C)C)[C@H]1OC(=O)C12CCC(C)(C(=O)O1)C2(C)C,,,p24,0.000256 µM
Cc1ccnc2c1NC(=O)c1cccnc1N2C1CC1,A1(RT-G190E),RT-G190E,p24,>10 µg/mL
CCCCCCCCCCCCCCCCOCC(Cl)COP(=O)([O-])OCC[N+](C)(C)C,IIIB,,RT activity,~1 µM
COc1cc2c(cc1OC)[C@@H](Cc1ccc(O)c(Oc3cc4c(cc3OC)CCN(C)[C@@H]4Cc3ccc(O)cc3)c1)N(C)CC2,IIIB,,p24,<0.8 µg/mL
CCN(CC)c1ccc(/C=C(\C#N)c2nc3ccccc3[nH]2)cc1,,,p24 / ELISA,0.00295 µM
CC(C)=CCC/C(C)=C/CN1CCc2cc(O)c(O)cc2[C@H]1Cc1ccc(O)c(O)c1,IIIB,,p24 / ELISA,>2.5 µg/mL
CCCCCCCCCCCCCCCCNc1ccn([C@H]2C[C@H](OP(=O)(O)OC[C@H]3O[C@@H](n4cc(C)c(=O)[nH]c4=O)C[C@@H]3N=[N+]=[N-])[C@@H](CO)O2)c(=O)n1,IIIB,,MTT / p24,0.05 µM
CC1NCCc2cc(O)c(O)cc21,IIIB,,p24 / ELISA,>2.5 µg/mL
COc1cc2c(cc1OC)[C@@H](Nc1ccc(C#N)cc1)[C@H]1COC(=O)[C@@H]1[C@@H]2c1cc(OC)c(O)c(OC)c1,IIIB,,p24,<0.001 µg/mL
O=C(O)P(=O)(O)O,,,RT activity,<50 µg/mL
C=C1CC[C@@H]2[C@](C)(CO)[C@H](O)CC[C@@]2(C)[C@@H]1C/C=C1/C(=O)OC[C@H]1O,IIIB,,antigen,>50 µg/mL
C[C@]12CC[C@H]3[C@@H](CCC4=CC(=O)CC[C@@]43C)[C@@H]1CC[C@@H]2C(=O)O,IIIB,,p24,>67.3 µM
COc1cc2c(cc1O)[C@@H](Cc1ccc(O)cc1)NCC2,IIIB,,p24,0.8 µg/mL
C[n+]1ccc2cc(O)c(O)cc2c1Cc1ccc(O)c(O)c1,IIIB,,p24 / ELISA,>2.5 µg/mL
C[C@H]1[C@H](O)[C@@H](C)/C=C/C=C/C=C/C=C/C=C/C=C/C=C/[C@H](O[C@@H]2O[C@H](C)[C@@H](O)[C@H](N)[C@@H]2O)C[C@@H]2O[C@](O)(C[C@@H](O)C[C@@H](O)CC[C@H](O)[C@@H](O)C[C@@H](O)CC(=O)O[C@H]1C)C[C@H](O)[C@H]2C(=O)O,,,RT activity,<5 µg/mL
CC(C)=CCC/C(C)=C/CC[C@@]1(C)C=Cc2c(cc(C)c(C(=O)O)c2O)O1,IIIB,,p24,0.15 µM
CCc1cc(CCc2nc3c(Cl)ccc(Cl)c3o2)c(=O)[nH]c1C,A17,RT-K103N Y181C,p24,<1.5 µM
CC(C)Nc1cccnc1N1CCN(C(=O)c2cc3cc(NS(C)(=O)=O)ccc3[nH]2)CC1,A2(RT-L74V G190E),RT-L74V G190E,p24,>10 µg/mL
CCc1cc(CCc2nc3ccccc3o2)c(=S)[nH]c1C,A17,RT-K103N Y181C,p24,<25 µM
O=c1c(O[C@@H]2O[C@H](CO)[C@H](O)[C@H](O)[C@H]2O[C@@H]2OC[C@@H](O)[C@H](O)[C@H]2O)c(-c2ccc(O)c(O)c2)oc2cc(O)cc(O)c12,IIIB,,p24,4 µg/mL
O=C(Nc1cc(S(=O)(=O)O)cc2cc(S(=O)(=O)O)c(N=Nc3ccc(N=Nc4c(S(=O)(=O)O)cc5cc(S(=O)(=O)O)cc(NC(=O)c6cccc(Cl)c6Cl)c5c4O)cc3)c(O)c12)c1ccc(Cl)cc1Cl,IIIB,,,0.3–1.3 µg/mL
COc1cc2c(cc1OC)[C@@H](Nc1ccc([N+](=O)[O-])cc1)[C@H]1COC(=O)[C@@H]1[C@@H]2c1cc(OC)c(OC)c(OC)c1,IIIB,,p24,2.45 µg/mL
Cc1c(-c2cnccn2)ssc1=S,IIIB,,MTT / p24,~10 µM
COc1cc2c(cc1OC)[C@@H](Nc1ccc([N+](=O)[O-])cc1)[C@H]1COC(=O)[C@@H]1[C@@H]2c1cc(OC)c(O)c(OC)c1,IIIB,,p24,<0.001 µg/mL
CC(C)=CCC/C(C)=C/CN1CCc2cc(O)c(O)cc2[C@H]1C,IIIB,,p24 / ELISA,>2.5 µg/mL

A second listing of 2 rows from above:

structure	strain or isolate	mutations	method	result
Cc1ccnc2c1NC(=O)c1cccnc1N2C1CC1	A1(RT-G190E)	RT-G190E	p24	>10 µg/mL
CN1N=C(N)c2cn([C@@H]3O[C@H](COP(=O)(O)O)[C@@H](O)[C@H]3O)c3ncnc1c23			p24	0.03 µM